Like-named read-outs stand apart in the source and are kept apart here.
How the values were obtained:
[1] = biological target: SINV-WEEV (CBA87) chimeric virus (western equine encephalitis virus)
[2] = biological target: SINV-WEEV (CBA87) chimeric virus (western equine encephalitis virus); remark: listed apart in the source

## duck MXRA8-Fc (Fc fusion)
[1]
  neutralisation of SINV-WEEV infection; IC50 (read off the curve): 6 µg/mL
[2]
  neutralisation of SINV-WEEV infection; IC50 (read off the curve): 7 µg/mL

## Du-D1-Mo-D2 MXRA8-Fc (chimeric duck D1 - mouse D2 MXRA8, duck stalk) (from UniProt Q9DBV4 23-65; Q9DBV4 195-293) (Fc fusion)
[1]
  neutralisation of SINV-WEEV infection; IC50 (read off the curve): 0.4 µg/mL

— patent US20240124553A1
